Measured values from several laboratories, pooled; numbers as filed in NIAID ChemDB.

Shared fields: whole-cell or culture tests; organism: Aspergillus fumigatus; endpoint: MIC90

MIC50, MIC90 and the like: level of inhibition, or share of isolates inhibited. An empty or dashed field is not shown. Neighbouring rows are from separate reports.

smiles,strain,method,result
O=C(c1ccccc1)C(c1ccccc1)n1nnc2ccccc21,-,agar,>256 µg/mL
CCC(C)n1ncn(-c2ccc(N3CCN(c4ccc(OC[C@H]5CO[C@](Cn6cncn6)(c6ccc(Cl)cc6Cl)O5)cc4)CC3)cc2)c1=O,12 strains,-,1 µg/mL
C[C@@H](c1ncncc1F)[C@](O)(Cn1cncn1)c1ccc(F)cc1F,28 isolates,-,0.06 µg/mL
C[C@H]1[C@H](O)[C@@H](C)/C=C/C=C/C=C/C=C/C=C/C=C/C=C/[C@H](O[C@@H]2O[C@H](C)[C@@H](O)[C@H](N)[C@@H]2O)C[C@@H]2O[C@](O)(C[C@@H](O)C[C@@H](O)CC[C@H](O)[C@@H](O)C[C@@H](O)CC(=O)O[C@H]1C)C[C@H](O)[C@H]2C(=O)O,94 isolates,-,2 µg/mL
CCCCCOc1ccc(-c2cc(-c3ccc(C(=O)N[C@H]4C[C@@H](O)[C@@H](O)NC(=O)[C@@H]5[C@@H](O)[C@@H](C)CN5C(=O)[C@H]([C@H](O)CC(N)=O)NC(=O)[C@H]([C@H](O)[C@@H](O)c5ccc(O)c(OS(=O)(=O)O)c5)NC(=O)[C@@H]5C[C@@H](O)CN5C(=O)[C@H]([C@@H](C)O)NC4=O)cc3)no2)cc1,17 isolates,-,≤0.0078 µg/mL
CC[C@@H]([C@H](C)O)n1ncn(-c2ccc(N3CCN(c4ccc(OC[C@@H]5CO[C@@](Cn6cncn6)(c6ccc(F)cc6F)C5)cc4)CC3)cc2)c1=O,-,-,0.5 µg/mL
CCC(C)n1ncn(-c2ccc(N3CCN(c4ccc(OC[C@H]5CO[C@](Cn6cncn6)(c6ccc(Cl)cc6Cl)O5)cc4)CC3)cc2)c1=O,25 isolates,-,2 µg/mL
C[C@H]1[C@H](O)[C@@H](C)/C=C/C=C/C=C/C=C/C=C/C=C/C=C/[C@H](O[C@@H]2O[C@H](C)[C@@H](O)[C@H](N)[C@@H]2O)C[C@@H]2O[C@](O)(C[C@@H](O)C[C@@H](O)CC[C@H](O)[C@@H](O)C[C@@H](O)CC(=O)O[C@H]1C)C[C@H](O)[C@H]2C(=O)O,-,-,1 µg/mL
CCC(C)CC(C)CCCCCCCCC(=O)N[C@H]1C[C@@H](O)[C@H](NCCN)NC(=O)[C@@H]2[C@@H](O)CCN2C(=O)[C@H]([C@H](O)CCN)NC(=O)[C@H]([C@H](O)[C@@H](O)c2ccc(O)cc2)NC(=O)[C@@H]2C[C@@H](O)CN2C(=O)[C@H]([C@@H](C)O)NC1=O,256 isolates,-,0.06 µg/mL
CCC(C)n1ncn(-c2ccc(N3CCN(c4ccc(OC[C@H]5CO[C@](Cn6cncn6)(c6ccc(Cl)cc6Cl)O5)cc4)CC3)cc2)c1=O,314 isolates,-,1 µg/mL
CCC(C)n1ncn(-c2ccc(N3CCN(c4ccc(OC[C@H]5CO[C@](Cn6cncn6)(c6ccc(Cl)cc6Cl)O5)cc4)CC3)cc2)c1=O,150 clinical isolates,-,0.25 µg/mL
C[C@@H](c1ncncc1F)[C@](O)(Cn1cncn1)c1ccc(F)cc1F,-,-,0.5 µg/mL
Nc1[nH]c(=O)ncc1F,12 strains,-,>128 µg/mL
Nc1ncccc1-c1cc(Cc2ccc(COc3ccccn3)cc2)no1,-,broth dilution,0.13 µg/mL
c1ccc(C(c2ccccc2)n2nnc3ccccc32)cc1,-,agar,>256 µg/mL
C[C@H]1[C@H](O)[C@@H](C)/C=C/C=C/C=C/C=C/C=C/C=C/C=C/[C@H](O[C@@H]2O[C@H](C)[C@@H](O)[C@H](N)[C@@H]2O)C[C@@H]2O[C@](O)(C[C@@H](O)C[C@@H](O)CC[C@H](O)[C@@H](O)C[C@@H](O)CC(=O)O[C@H]1C)C[C@H](O)[C@H]2C(=O)O,25 isolates,-,4 µg/mL
Clc1ccc(C(c2ccccc2)n2nnc3ccccc32)cc1,-,agar,>256 µg/mL
C[C@H]1[C@H](O)[C@@H](C)/C=C/C=C/C=C/C=C/C=C/C=C/C=C/[C@H](O[C@@H]2O[C@H](C)[C@@H](O)[C@H](N)[C@@H]2O)C[C@@H]2O[C@](O)(C[C@@H](O)C[C@@H](O)CC[C@H](O)[C@@H](O)C[C@@H](O)CC(=O)O[C@H]1C)C[C@H](O)[C@H]2C(=O)O,3 clinical isolates,-,2 µg/mL
Clc1ccc(C(c2ccccc2)N2CCN(CCn3cncn3)CC2)cc1,-,agar,256 µg/mL
Clc1ccc(COC(Cn2ccnc2)c2ccc(Cl)cc2Cl)c(Cl)c1,25 isolates,-,4 µg/mL
c1ccc(C(c2ccccc2)n2cncn2)cc1,-,agar,32 µg/mL
C[C@H]1[C@H](O)[C@@H](C)/C=C/C=C/C=C/C=C/C=C/C=C/C=C/[C@H](O[C@@H]2O[C@H](C)[C@@H](O)[C@H](N)[C@@H]2O)C[C@@H]2O[C@](O)(C[C@@H](O)C[C@@H](O)CC[C@H](O)[C@@H](O)C[C@@H](O)CC(=O)O[C@H]1C)C[C@H](O)[C@H]2C(=O)O,256 isolates,-,1 µg/mL
Clc1ccc(C(c2ccccc2)N2CCN(CCn3ccnc3)CC2)cc1,-,agar,>256 µg/mL
COc1cc(O)c2c(c1)C(=O)c1c(cc3c(c1O)-c1c(cc(C)c(C(=O)NC(CO)C(=O)O)c1O)[C@H](OC1OC(C)C(O)C(OC4OCC(O)C(O)C4O)C1O)C3O)C2=O,35 isolates,-,8 µg/mL
COc1ccc(C(c2ccc(OC)cc2)n2cncn2)cc1,-,agar,>256 µg/mL
C[C@@H](c1nc(-c2ccc(C#N)cc2)cs1)[C@](O)(Cn1cncn1)c1ccc(F)cc1F,314 isolates,-,1 µg/mL
CCC(C)n1ncn(-c2ccc(N3CCN(c4ccc(OC[C@H]5CO[C@](Cn6cncn6)(c6ccc(Cl)cc6Cl)O5)cc4)CC3)cc2)c1=O,256 isolates,-,2 µg/mL
c1ccc(C(c2ccccc2)n2ccnc2)cc1,-,agar,0.5 µg/mL

Repeating the final 4 entries:

{"smiles": "COc1ccc(C(c2ccc(OC)cc2)n2cncn2)cc1", "method": "agar", "result": ">256 µg/mL"}
{"smiles": "C[C@@H](c1nc(-c2ccc(C#N)cc2)cs1)[C@](O)(Cn1cncn1)c1ccc(F)cc1F", "strain": "314 isolates", "result": "1 µg/mL"}
{"smiles": "CCC(C)n1ncn(-c2ccc(N3CCN(c4ccc(OC[C@H]5CO[C@](Cn6cncn6)(c6ccc(Cl)cc6Cl)O5)cc4)CC3)cc2)c1=O", "strain": "256 isolates", "result": "2 µg/mL"}
{"smiles": "c1ccc(C(c2ccccc2)n2ccnc2)cc1", "method": "agar", "result": "0.5 µg/mL"}